Source: US20140377259A1, “METHODS FOR INHIBITING HIV-1 REPLICATION INVOLVING THE ADMINISTRATION OF AN ANTI-CCR5 RECEPTOR MONOCLONAL ANTIBODY AND SMALL MOLECULE CCR5 RECEPTOR ANTAGONIST” (CytoDyn Inc., priority 2005, published 2014)

Chains of the proteins cited; added tags and fusions are not shown.
UniProt P51681, whole entry: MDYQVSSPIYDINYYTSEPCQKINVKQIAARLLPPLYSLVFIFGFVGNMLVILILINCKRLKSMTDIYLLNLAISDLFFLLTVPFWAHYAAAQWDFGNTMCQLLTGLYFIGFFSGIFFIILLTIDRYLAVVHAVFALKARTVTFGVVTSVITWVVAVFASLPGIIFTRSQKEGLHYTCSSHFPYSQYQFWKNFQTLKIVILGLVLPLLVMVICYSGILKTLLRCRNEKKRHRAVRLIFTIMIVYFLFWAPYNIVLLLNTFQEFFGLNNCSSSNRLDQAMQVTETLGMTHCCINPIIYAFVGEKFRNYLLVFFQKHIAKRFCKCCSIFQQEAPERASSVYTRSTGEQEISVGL

Target: T1, CCR5 (Homo sapiens, UniProt P51681)
T1 construct: host or cells: CEM.NKR (human T cell leukemia line), transduced with CCR5
Assay: Competition binding: inhibition of 3H-UK-427,857 binding to CEM.NKR-CCR5 cells

B1: PRO 140: humanized IgG4,κ anti-CCR5 monoclonal antibody, humanized version of murine mAb PA14 (antibody, chains of the INN, looked up, V domains shown)
VH: EVQLVESGGGLVKPGGSLRLSCAASGYTFSNYWIGWVRQAPGKGLEWIGDIYPGGNYIRNNEKFKDKTTLSADTSKNTAYLQMNSLKTEDTAVYYCGSSFGSNYVFAWFTYWGQGTLVTVSS
VL: DIVMTQSPLSLPVTPGEPASISCRSSQRLLSSYGHTYLHWYLQKPGQSPQLLIYEVSNRFSGVPDRFSGSGSGTDFTLKISRVEAEDVGVYYCSQSTHVPLTFGQGTKVEIK
EC50 for 3H-UK-427,857 binding relative to antiviral IC50: 5-10 fold
